{"source": "patent US8536319B2", "about": "“Compounds and methods for detecting ricin and uses thereof” (dated 2013)", "key": {"[1]": {"system": "dab-14", "experiment": "Hybridization of molecular beacons with model sequence dab-14 (fluorescence)", "conditions": "for fluorescence of duplex enhanced relative to beacon hairpin alone: duplex with dab-14, 1.2:1 ratio, pH 7.6, λex 490 nm; for discrimination between A-14 and dab-14: hybridization of model sequences, pH 7.6"}, "[2]": {"system": "A-14 / ab-14 (substrate and product of the RTA reaction)", "experiment": "One pot RTA assay, substrate A-14 (product ab-14)"}, "[3]": {"system": "A-14", "experiment": "Hybridization of molecular beacons with model sequence A-14 (fluorescence)", "conditions": "for fluorescence of duplex enhanced relative to beacon hairpin alone: duplex with A-14, 1.2:1 ratio, pH 7.6, λex 490 nm"}, "[4]": {"experiment": "Thermal denaturation experiments"}, "[5]": {"system": "A14-2dA / product of the RTA reaction", "experiment": "One pot RTA assay, substrate A14-2dA"}}}
{"substance": "5′-6-FAM-d(CGCGCTCTCGCGCG) (SEQ ID NO:1)-BHQ1-3′", "values": [{"measurement": "fluorescence of duplex enhanced relative to beacon hairpin alone", "setting": "[1]", "result": "almost no enhancement"}, {"measurement": "discrimination between A-14 and dab-14", "setting": "[1]", "result": "Complete discrimination"}, {"measurement": "enhancement of fluorescence for A-14 relative to ab-14", "setting": "[2]; one pot system", "result": 20, "unit": "%"}, {"measurement": "discrimination factor", "setting": "[2]; one pot system, A-14 relative to ab-14", "result": 1.22}, {"measurement": "fluorescence of duplex enhanced relative to beacon hairpin alone", "setting": "[3]", "result": 4, "unit": "fold"}, {"measurement": "discrimination factor", "setting": "[3]; model system", "result": 1.4}, {"measurement": "enhancement of fluorescence for A-14 relative to abasic sequence", "setting": "[3]; model system", "result": 40, "unit": "%"}, {"measurement": "dependence of enhancement in fluorescent intensity on salt concentration", "setting": "[3]; λex=490 nm, λem=515 nm", "result": "independent of the salt concentration"}, {"measurement": "Tm of heteroduplex", "setting": "[4]; MB1:A-14 heteroduplex, could not be fitted", "result": "exceeds 80 °C"}]}
{"substance": "5′-FAM-d(CGCGCTCPyCGCGCG)-Dab-3′", "values": [{"measurement": "dependence of discrimination on monovalent salt concentration", "setting": "[1]; 50, 100 and 200 mM KCl, A-14 vs dab-14", "result": "decrease with increasing salt concentration"}, {"measurement": "fluorescence of duplex enhanced relative to beacon hairpin alone", "setting": "[1]", "result": 4, "unit": "fold"}, {"measurement": "discrimination by pyrene monomer emission", "setting": "[1]; excitation at 348 nm, A-14 vs dab-14", "result": "no discrimination"}, {"measurement": "discrimination between A-14 and dab-14", "setting": "[1]", "result": "lower with the MB2 beacon than with MB1"}, {"measurement": "enhancement of fluorescence of abasic sequence relative to A-14", "setting": "[1]; model system", "result": 40, "unit": "%"}, {"measurement": "enhancement of fluorescence of ab-14 (product) relative to A-14", "setting": "[2]; one pot system", "result": 20, "unit": "%"}, {"measurement": "increase in intensity of product over that of the substrate", "setting": "[2]; substrate not specified", "result": "20-25%"}, {"measurement": "enhancement of fluorescence of the product relative to A14-2dA", "setting": "[5]; one pot system", "result": 40, "unit": "%"}, {"measurement": "discrimination of the product", "setting": "[5]; one pot, A14-2dA as the substrate", "result": 1.4}, {"measurement": "fluorescence of duplex enhanced relative to beacon hairpin alone", "setting": "[3]", "result": 2, "unit": "fold"}, {"measurement": "Tm of duplex", "setting": "[4]; dab-14:MB2 duplex, 20 mM triethanolamine pH 7.6, 100 mM KCl, 10 mM MgCl2", "result": 69, "unit": "°C"}]}
